Compound potency records, mixed from different reports. Data source: NIAID ChemDB in PubChem.

Common to all: tests in culture; species: Coxsackie virus; endpoint: EC50

ECn: concentration that inhibits the pathogen or its effect by n%. Blank or dashed fields: not listed here. Conditions beyond the fields shown may differ between rows.

| SMILES | strain | method | cell line | value |
|---|---|---|---|---|
| Nc1nccc2c1ncn2[C@H]1CC[C@@H](CO)O1 | B1 | plaque count | VERO | >429 µM |
| COc1ccc(-c2cc(N3CCCCC3)no2)c(O)c1 | ATCC VR28 (TYPE B1) | cytopathic effect | VERO | >364 µM |
| Nc1ccn([C@@H]2O[C@H](CO)[C@@H](F)[C@H]2O)c(=O)n1 | TYPE B4 | cytopathic effect | VERO B | 300 µg/mL |
| CSCC1=C[C@@H](n2cnc3c(N)ncnc32)[C@H](O)[C@@H]1O | TYPE B4 | cytopathic effect | HeLa | >200 µg/mL |
| CSc1nsc(-c2ccc(OCCCCOc3ccc([N+](=O)[O-])cc3)cc2)c1C#N | TYPE B1 | plaque count | HEP-2/L-929/VERO | >0.5 µM |
| O=c1[nH]cnc2c1ncn2C1C[C@H](CO)[C@@H](CO)C1 | B4 | - | VERO | >100 µg/mL |
| CN(C)c1cc(-c2ccc(O)cc2O)on1 | ATCC VR28 (TYPE B1) | cytopathic effect | VERO | 55 µM |
| CC[C@@H](O)C1=C[C@@H](n2cnc3c(N)ncnc32)[C@H](O)[C@@H]1O | TYPE B4 | cytopathic effect | HeLa | >400 µg/mL |
| Nc1ncnc2c1cnn2Cc1cn(CCCCO)nn1 | B4 | - | HeLa | >400 µg/mL |
| Cc1c(-c2ccccc2)n(-c2ccc(F)cc2)c2ccc(C(C)C)cc2c1=O | TYPE A7 | cytopathic effect | HeLa S3 | >2 µg/mL |
| CC(Sc1ncnc2c1cnn2CCCCO)C(N)=O | TYPE B4 | cytopathic effect | HeLa | >400 µg/mL |
| Cc1cn([C@H]2C[C@H]([N+](=O)[O-])[C@@H](CO)O2)c(=O)[nH]c1=O | - | cytopathic effect | HeLa | >200 µg/mL |
| CC1(C)[C@@H](CCO)C[C@H]1n1nnc2c(N)ncnc21 | TYPE B4 | cytopathic effect | VERO | >100 µg/mL |
| Nc1nccc2c1ncn2[C@@H]1O[C@H](CO)[C@@H](O)[C@H]1O | B1 | plaque count | VERO | >125 µM |
| CO[C@H](CO)[C@@H](O)CCn1cnc2c(=O)[nH]c(N)nc21 | TYPE B4 | cytopathic effect | VERO | >400 µg/mL |
| [N-]=[N+]=N[C@H]1[C@@H](F)[C@H](n2cnc3c(N)ncnc32)O[C@@H]1CO | TYPE B4 | cytopathic effect | VERO B | 200 µg/mL |
| CSc1ncnc2c1cnn2Cc1cnnn1CCCCO | B4 | - | VERO | >400 µg/mL |
| Cc1ccn2c(C3OCCS3)cnc2c1 | TYPE B4 | - | VERO | >1000 µM |
| OCCCCn1cc(Cn2ncc3c(NCc4ccccc4)ncnc32)nn1 | B4 | - | VERO | >400 µg/mL |
| CO[C@H](CO)[C@@H](O)CCn1ccc(N)nc1=O | TYPE B4 | cytopathic effect | VERO | >400 µg/mL |
| COc1cc(OC)c(/C=N/N=C(/N)NO)c(OC)c1.Cc1ccc(S(=O)(=O)O)cc1 | ATCC VR28 (TYPE B1) | plaque count | VERO | >50 µM |
| C=C(N=CC)c1nc(-c2ccc(OC)cc2)n([C@@H]2O[C@H](CO)[C@@H](O)[C@H]2O)n1 | TYPE B4 | cytopathic effect | HeLa | >400 µg/mL |
| CCC(Sc1ncnc2c1cnn2COCC(O)CO)C(N)=O | TYPE B4 | cytopathic effect | VERO | >400 µg/mL |
| Nc1ncnc2c1nnn2[C@@H]1O[C@H](CO)[C@@H](O)[C@H]1O | B1 | plaque count | VERO | >4.5 µM |
| Cn1cc(CCCCOc2ccc(C3=NCCO3)cc2)cc1C=O | - | plaque count | VERO | >280 µM |
| CCOC(=O)c1ccc(OCCCCOc2ccc(-c3snc(SC)c3C#N)cc2)cc1 | TYPE B1 | plaque count | HEP-2/L-929/VERO | >2 µM |
| CC=NC(=N)c1nc(-c2ccc(C)cc2)n(COCCO)n1 | TYPE B4 | cytopathic effect | VERO | >100 µg/mL |
| CC1(C)[C@@H](CCO)C[C@H]1n1cnc2c(N)ncnc21 | TYPE B4 | cytopathic effect | VERO | >400 µg/mL |
| OC[C@H]1O[C@@H](n2nc3ccnc(Cl)c3n2)[C@H](O)[C@@H]1O | B1 | plaque count | VERO | 80 µM |
| Cc1ccn2c(C3SCCS3)cnc2c1 | TYPE B4 | - | HeLa | >1000 µM |
| O=c1[nH]c(=O)n(C2C[C@H](CO)[C@@H](CO)C2)cc1I | B4 | - | VERO | >100 µg/mL |
| CCCCCCCCCCc1nccn(COCCO)c1=O | TYPE B4 | cytopathic effect | MRC-5 | 100 µM |
| CC1(CO)CCC(Cn2cnc3c(N)nc(N)nc32)C1(C)C | TYPE B4 | cytopathic effect | VERO | >40 µg/mL |
| O=c1ccn([C@@H]2C[C@H](CO)C[C@H]2CO)c(=O)[nH]1 | B4 | - | VERO | >100 µg/mL |
| CCOc1ccc(-c2cc(N3CCCCC3)no2)c(O)c1 | ATCC VR28 (TYPE B1) | cytopathic effect | VERO | >347 µM |
| CCn1c(-c2ccccc2)c(C)c(=O)c2cc(-c3ccccc3)ccc21 | TYPE A7 | cytopathic effect | HeLa S3 | >1.9 µg/mL |
| Brc1ccc(Cn2ccc3nc(-c4ccccc4Br)nc-3c2)cc1 | NANCY (TYPE B3) | cytopathic effect | VERO | 12 µg/mL |
| Nc1ncnc2c1ncn2[C@@H]1C=C(CF)[C@H](O)[C@H]1O | TYPE B4 | cytopathic effect | VERO | >200 µg/mL |
| CSc1nsc(-c2ccc(OCCOc3ccc([N+](=O)[O-])cc3)cc2)c1C#N | TYPE B1 | plaque count | HEP-2/L-929/VERO | >1 µM |
| Nc1nccc2nn([C@@H]3O[C@H](CO)[C@@H](O)[C@H]3O)nc12 | B1 | plaque count | VERO | >398 µM |
| Nc1nc2c(ncn2[C@H]2CO[C@@H](CO)C2)c(=O)[nH]1 | TYPE B4 | cytopathic effect | VERO | >400 µg/mL |
| CO[C@H](CO)[C@@H](O)CCn1cnc2c(N)ncnc21 | TYPE B4 | cytopathic effect | VERO | >400 µg/mL |
| CC(C)CS[C@@H]1C=C[C@H](n2cnc3c(N)ncnc32)C1 | TYPE B4 | cytopathic effect | HeLa | >3.2 µg/mL |
| COc1cc2c(=O)c(C)c(-c3ccccc3)n(C)c2cc1C(C)C | TYPE B4/JVB | cytopathic effect | HeLa S3 | >3.3 µg/mL |
| Clc1ccc(-c2nc3ccn(Cc4ccc(Br)cc4)cc-3n2)cc1 | NANCY (TYPE B3) | cytopathic effect | VERO | 8.47 µg/mL |
| CSc1nsc(-c2ccc(OCc3ccccc3)cc2)c1C#N | TYPE B1 | plaque count | HEP-2/L-929/VERO | 10 µM |
| CC=NC(=N)c1nc(-c2cccc(C)c2)n(COCCO)n1 | TYPE B4 | cytopathic effect | VERO | >20 µg/mL |
| Cc1ccc(-n2c(-c3ccccc3)c(C)c(=O)c3cc(C(C)C)ccc32)cc1 | TYPE B4/JVB | cytopathic effect | HeLa S3 | >2.5 µg/mL |
| CC=NC(=N)c1nc(-c2cccc(OC)c2)n(Cc2ccccc2)n1 | TYPE B4 | cytopathic effect | VERO | >10 µg/mL |
| CC1(CO)CCC(Cn2cnc3c(Cl)nc(N)nc32)C1(C)C | TYPE B4 | cytopathic effect | VERO | >200 µg/mL |
| OCCCCn1nncc1Cn1ncc2c(SCc3ccccc3)ncnc21 | B4 | - | HeLa | >400 µg/mL |
| CCOc1ccc(-c2onc(N(CC)CC)c2Cc2c(N(CC)CC)noc2-c2ccc(O)cc2O)c(O)c1 | ATCC VR28 (TYPE B1) | cytopathic effect | VERO | >17 µM |
| CSc1nsc(-c2ccc(OCCCOc3ccc(C#N)cc3)cc2)c1C#N | TYPE B1 | plaque count | HEP-2/L-929/VERO | >2 µM |
| COc1ccc(/C=N/N=C(/N)NO)c(OC)c1OC.Cc1ccc(S(=O)(=O)O)cc1 | ATCC VR28 (TYPE B1) | plaque count | VERO | >50 µM |
| Cc1cccn2c(C3SCCS3)cnc12 | TYPE B4 | - | VERO | >1000 µM |
| C=C[C@@H](O)C1=C[C@@H](n2cnc3c(N)ncnc32)[C@H](O)[C@@H]1O | TYPE B4 | cytopathic effect | HeLa | >200 µg/mL |
| CC1(C)[C@@H](CCO)C[C@H]1n1cnc2c(N)nc(N)nc21 | TYPE B4 | cytopathic effect | VERO | >400 µg/mL |
| CC1=C[C@@H](n2cnc3c(N)ncnc32)[C@H](O)[C@@H]1O | TYPE B4 | cytopathic effect | HeLa | >200 µg/mL |
| CO[C@H](CO)[C@@H](O)CCn1cc(C)c(=O)[nH]c1=O | TYPE B4 | cytopathic effect | VERO | >400 µg/mL |
| NC(=O)CSc1ncnc2c1cnn2COCCO | TYPE B4 | cytopathic effect | HeLa | >400 µg/mL |
| c1ccc(Cn2ccc3nc(-c4ccccc4)nc-3c2)cc1 | NANCY (TYPE B3) | cytopathic effect | VERO | 6 µg/mL |
| Nc1nc(Cl)c2ccn([C@H]3CO[C@@H](CO)C3)c2n1 | TYPE B4 | cytopathic effect | HeLa | >200 µg/mL |
| CC1(CO)CCC(Cn2nnc3c(N)nc(N)nc32)C1(C)C | TYPE B4 | cytopathic effect | VERO | >200 µg/mL |

For reference, 3 entries again:

| SMILES | strain | method | cell line | value |
|---|---|---|---|---|
| COc1ccc(-c2cc(N3CCCCC3)no2)c(O)c1 | ATCC VR28 (TYPE B1) | cytopathic effect | VERO | >364 µM |
| Nc1nccc2c1ncn2[C@@H]1O[C@H](CO)[C@@H](O)[C@H]1O | B1 | plaque count | VERO | >125 µM |
| OCCCCn1nncc1Cn1ncc2c(SCc3ccccc3)ncnc21 | B4 | - | HeLa | >400 µg/mL |